Results of unrelated studies side by side (data: NIAID ChemDB).

Common to all: tests in culture; species: Mycobacterium tuberculosis

Neighbouring rows are from separate reports. Percent inhibition refers to the dose given; in toxicity tests it is the harm to the cells. MIC bound comes from a single tested concentration. Blank or dashed fields: not listed here. ECn is the concentration giving n% inhibition of infection, replication or growth.

structure	dose	strain or isolate	cells	read-out	method	value
Cn1c(NNc2nc(NCc3ccccc3)nc(NCc3ccccc3)n2)nc(-c2ccccc2)c(C#N)c1=O	12.5 µg/mL	H37Rv	-	inhibition	-	82%
Cc1cc(NC(=O)CCc2ccc(N3C(N)=NC(N)=NC3(C)C)cc2Cl)ccc1S(=O)(=O)F	12.5 µg/mL	H37Rv	-	inhibition	BACTEC	74%
NC(N)=Nc1ccc(-c2ccc(-c3ccc(N=C(N)N)cc3Cl)o2)c(Cl)c1	-	-	-	EC50	-	>12.5 µg/mL
CCCCCCCCCCCCCCCCc1c(C(=O)OC)nc(NN)[nH]c1=O	-	H37Rv	-	MIC bound	BACTEC	>12.5 µg/mL
S=c1nn[nH]n1-c1ccccc1	-	-	-	MIC	-	200 µg/mL
CCCCCCOc1ccccc1NC(=O)OCC[N+]1(CCCC)CCCCC1	-	My 331/88	-	MIC	-	32 µM
O=[N+]([O-])c1ccc(C2=NOC(c3ccc(N4CCN(Cc5ccccc5)CC4)cc3)C2)o1	-	H37Rv	-	MIC	-	0.006 µg/mL
c1ccc(/C(Cn2ccnc2)=N/OCc2ccc(-c3ccccc3)cc2)cc1	-	CIP103471	-	MIC	-	8 µg/mL
O=c1cc(-c2ccc(Oc3c(O)cc4oc(-c5ccc(O)cc5)cc(=O)c4c3O)cc2)oc2cc(O)cc(O)c12	-	-	-	MIC	-	>12.5 µg/mL
O=C(COc1cnccn1)N/N=c1\scc(-c2ccc(F)cc2)n1-c1ccc(Cl)cc1[N+](=O)[O-]	-	H37Rv	-	MIC	-	6.1 µg/mL
O=C1/C(=N\NC(=O)c2ccccc2)C(C(O)CO)O/C1=N/NC(=O)c1ccccc1	-	-	-	MIC	-	1 µg/mL
CN[C@@H]1[C@H](O[C@H]2[C@H](O[C@H]3[C@H](O)[C@@H](O)[C@H](N=C(N)N)[C@@H](O)[C@@H]3N=C(N)N)O[C@@H](C)[C@]2(O)C=O)O[C@@H](CO)[C@H](O)[C@H]1O	-	MTB23 (S)	-	MIC	-	0.3 µg/mL
CC(=O)Oc1ccc([C@@H]2CC(=O)c3c(cc(OC(C)=O)c(-c4c(OC(C)=O)cc5c(c4OC(C)=O)C(=O)C[C@@H](c4ccc(OC(C)=O)cc4)O5)c3OC(C)=O)O2)cc1	-	-	-	EC50	-	>12.5 µg/mL
NC[C@@H]1O[C@H](O[C@H]2[C@@H](O)[C@H](O[C@@H]3[C@@H](O)[C@H](N)C[C@H](N)[C@H]3O[C@H]3O[C@H](CO)[C@@H](O)[C@H](O)[C@H]3N)O[C@@H]2CO)[C@H](N)[C@@H](O)[C@@H]1O	-	H37Rv	-	MIC	-	<0.09 µg/mL
CC1COc2c(N3CCN(C)CC3)c(F)cc3c(=O)c(C(=O)O)cn1c23	-	90-0233 (isoniazid streptomycin-resistant)	-	MIC	-	0.5 µg/mL
CCOc1ccc(NC(=S)NNC(=O)COc2cnccn2)cc1	-	H37Rv	-	MIC	-	92 µg/mL
CCOc1cc(C2=NNc3n[nH]c(=S)n3N2)ccc1O	-	H37Rv	-	MIC bound	BACTEC	>12.5 µg/mL
CCCCCCCCCCCC[N+]1(CCOC(=O)Nc2ccccc2OCCCCCC)CCCCC1	-	My 331/88	-	MIC	-	8 µM
CCOc1ccc(-n2c(-c3ccc(O)cc3)cs/c2=N\NC(=O)COc2cnccn2)cc1	-	H37Rv	-	MIC	-	10.4 µg/mL
O=C(CSc1nc2ccc(Cl)cc2c(=O)n1-c1ccccc1)N=Nc1c(O)[nH]c2ccccc12	-	H37Rv	-	MIC	-	>12.5 µg/mL
NNC(=O)c1ccncc1	-	90-0201 (DRUG-SUS)	-	MIC	-	0.04 µg/mL
Cc1cc(-n2c(C)nc3ccccc3c2=O)on1	12.5 µg/mL	H37Rv	-	inhibition	BACTEC	-14%
CCCCNCc1ccc(OCCCC)cc1	-	H37Rv	-	MIC	-	250 µg/mL
Cc1ccccc1S(=O)(=O)NNc1ccccc1	-	-	-	MIC	-	>200 µg/mL
COc1ccc(Nc2nc(NNc3nc(-c4ccc(Cl)cc4)c(C#N)c(=O)n3C)nc(Nc3ccc(OC)cc3)n2)cc1	12.5 µg/mL	H37Rv	-	inhibition	-	52%
C/C=C(/C)C(=O)OC1CC(C)(C)CC2C3=CCC4C5(C)CC[C@H](OC(C)=O)C(C)(C)C5CC[C@@]4(C)[C@]3(C)CC[C@@]12C(=O)O	-	H37Rv (isoniazid-resistant)	-	MIC	-	25 µg/mL
NNC(=O)c1ccc(Cl)cc1	-	-	-	MIC	-	>200 µg/mL
CC1(C)OC(COC(=O)c2ccccc2)C2OC(C)(C)OC(COC(=O)c3ccccc3)C2O1	-	H37Rv	-	MIC bound	BACTEC	>12.5 µg/mL
Cc1ccc(-c2cs/c(=N\NC(=O)COc3cnccn3)n2-c2ccc(Cl)cc2[N+](=O)[O-])cc1	-	H37Rv	-	MIC	-	12 µg/mL
Cc1cc(COC(=O)c2ccc(N)cc2O)ccc1C(C)C	-	H37Rv (p-aminosalicylate-resistant)	-	MIC	-	100 µg/mL
O=c1cc(-c2ccccc2-c2cccc3c(=O)cc(-c4ccccc4)oc23)oc2ccccc12	-	-	-	EC50	-	>12.5 µg/mL
Cn1c(=O)nc2n(-c3ccc(F)cc3)c3ccccc3nc-2c1=O	-	H37Rv	-	MIC bound	BACTEC	>12.5 µg/mL
O=C(N/N=C/c1ccco1)c1ccc(NS(=O)(=O)c2ccccc2)cc1	-	-	-	MIC	-	>200 µg/mL
Clc1ccc(/C(Cn2ccnc2)=N\OCc2ccc(-c3ccccc3)cc2)c(Cl)c1	-	CIP103471	-	MIC	-	8 µg/mL
Cn1c(NNc2nc(Nc3cc(Cl)cc(Cl)c3)nc(Nc3cc(Cl)cc(Cl)c3)n2)nc(-c2ccc(Cl)cc2)c(C#N)c1=O	12.5 µg/mL	H37Rv	-	inhibition	-	66%
O=C1NC(=O)C2C3C=CC(C12)C1C2C(=O)NC(=O)C2C31	12.5 µg/mL	H37Rv	-	inhibition	BACTEC	9%
CCNC(=S)N=Nc1c(O)[nH]c2ccc(Br)cc12	12 µg/mL	H37Rv	-	inhibition	-	57%
CC(C)N(O)C(=O)C(=O)O	-	ATCC35801	-	MIC	-	18 µg/mL
CCCCCCOc1ccccc1NC(=O)OCC[N+]1(C)CCCCC1	-	My 331/88	-	MIC	-	62.5 µM
O=C(COc1cnccn1)NNC(=S)Nc1ccc(Cl)cc1[N+](=O)[O-]	-	H37Rv	-	MIC	-	61 µg/mL
O=C(O)/C=C/c1ccccc1	-	90-0233 (isoniazid streptomycin-resistant)	-	MIC	-	200 µg/mL
C(=C\c1ccccc1)/CO/N=C(/Cn1ccnc1)c1ccccc1	-	CIP103471	-	MIC	-	8 µg/mL
COc1cccc(Nc2nc(NNc3nc(-c4ccccc4)c(C#N)c(=O)n3C)nc(Nc3cccc(OC)c3)n2)c1	-	H37Rv	VERO	MIC	-	>12.5 µg/mL
CCOc1ccc(C(=O)N/N=C\C(O)C(O)C(O)C(O)CO)cc1	-	-	-	MIC	-	40 µg/mL
Cc1ccc2nnc(NS(=O)(=O)c3cc(C)c(Cl)cc3S)n2n1	-	H37Rv	-	MIC bound	BACTEC	>12.5 µg/mL
Oc1cc(CCCc2ccccc2)ccc1Oc1ccc(Cl)cc1Cl	-	Clinical isolate 12081	-	MIC	-	100 µM
CCN(CC)c1ccc2nc3c4ccccc4c(=N)cc-3oc2c1	-	H37Rv	VERO	MIC	BACTEC	1.6 µg/mL
CCCCNCc1cccc(OC)c1	-	H37Rv	-	MIC	-	250 µg/mL
O=c1cc(-c2ccccc2)oc2ccc(-c3ccccc3-c3cc(=O)c4ccccc4o3)cc12	-	-	-	EC50	-	>12.5 µg/mL
O=C(NCc1ccc(N2CCN(Cc3ccccc3)CC2)cc1)c1ccc([N+](=O)[O-])o1	-	UT18	-	MIC	-	0.012 µg/mL
CCCCCCOc1ccccc1NC(=O)OCC[N+]1(CC)CCCCC1	-	My 331/88	-	MIC	-	32 µM
CN=C(N=Nc1c(O)[nH]c2ccccc12)SCC(=O)c1ccc(Br)cc1	12 µg/mL	H37Rv	-	inhibition	-	99%
CCCCNCc1cccc(F)c1	-	H37Rv	-	MIC	-	30 µg/mL
CC(=O)NNS(=O)(=O)c1ccc([N+](=O)[O-])cc1	-	-	-	MIC	-	100 µg/mL
c1ccc(/C(Cn2ccnc2)=N/OCc2cccc3ccccc23)cc1	-	CIP103471	-	MIC	-	8 µg/mL
Cn1c(NNc2nc(Nc3ccc(Cl)cc3)nc(Nc3ccc(Cl)cc3)n2)nc(-c2ccccc2)c(C#N)c1=O	-	H37Rv	-	MIC	-	>12.5 µg/mL
Fc1ccc(/C(Cn2ccnc2)=N/OCc2ccc(-c3ccccc3)cc2)cc1	-	CIP103471	-	MIC	-	8 µg/mL
CC(C)N=c1cc2n(-c3ccc(Cl)cc3)c3ccccc3nc-2cc1Nc1ccc(Cl)cc1	-	90-0201 (DRUG-SUS)	-	MIC	-	0.2 µg/mL
O=c1cc(-c2cccc(-c3ccc4c(=O)cc(-c5ccccc5)oc4c3)c2)oc2ccccc12	-	-	-	EC50	-	>12.5 µg/mL
O=C1CCC[C@@H]2[C@H]3C[C@@H](CN12)[C@@H]1C[C@@H](O)CCN1C3	-	H37Rv	-	MIC	BACTEC	≥12.8 µg/mL
CCCCNCNC1=CC(NCc2ccccc2)=CC1	-	H37Rv	-	MIC	-	250 µg/mL
O=C(CSc1nc2ccccc2[nH]1)N=Nc1c(O)[nH]c2ccccc12	-	H37Rv	-	EC50	-	>12 µg/mL
Cn1c(NNc2nc(NCc3ccco3)nc(NCc3ccco3)n2)nc(-c2ccccc2)c(C#N)c1=O	12.5 µg/mL	H37Rv	-	inhibition	-	47%
CC(=O)Nc1n[n+]([O-])c2cc(C)ccc2[n+]1[O-]	-	H37Rv	VERO	MIC	-	3.13 µg/mL
Clc1ccc(/C(Cn2ccnc2)=N/OCc2ccc(-c3ccccc3)cc2)cc1	-	CIP103471	-	MIC	-	8 µg/mL
Cc1cc(N=C(N)N)ccc1-c1ccc(-c2ccc(N=C(N)N)cc2C)o1	12.5 µg/mL	-	-	inhibition	-	2%
N/C(=N\N=C(\N)c1ccccc1)c1ccccc1	-	-	-	MIC	-	>200 µg/mL
CC(C)CC(NC(=O)OCc1ccccc1)C(=O)NN	-	H37Rv	-	MIC bound	BACTEC	>12.5 µg/mL
O=C1C[C@@H](c2ccc(O)c(O)c2)Oc2c1c(O)cc(O)c2[C@H]1C(=O)c2c(O)cc(O)cc2O[C@@H]1c1ccc(O)cc1	-	-	-	MIC	-	>12.5 µg/mL
O=C1c2cccc(NCC3CO3)c2C(=O)c2cccc(NCC3CO3)c21	12.5 µg/mL	H37Rv	-	inhibition	BACTEC	99%
CCCCCCC[N+]1(CCOC(=O)Nc2ccccc2OCCCCCC)CCCCC1	-	My 331/88	-	MIC	-	4 µM
NC(=O)C(=CNC(=S)N=Nc1c(O)[nH]c2ccccc12)C(N)=O	6.25 µg/mL	H37Rv	-	inhibition	BACTEC	0%
COc1ccccc1Nc1nc(NNc2nc(-c3ccc(Cl)cc3)c(C#N)c(=O)n2C)nc(Nc2ccccc2OC)n1	12.5 µg/mL	H37Rv	-	inhibition	-	12%
CC(C)Cn1c(-c2ccccc2)cs/c1=N\NC(=O)COc1cnccn1	-	H37Rv	-	MIC	-	8.7 µg/mL
CCCCNCc1ccccc1O	-	H37Rv	-	MIC	-	125 µg/mL
Oc1cc(-c2ccccc2)ccc1Oc1ccc(Cl)cc1Cl	-	Clinical isolate 5071	-	MIC	-	27 µM
CC(=O)OCC1OC(c2[nH]nc3c(Cl)ncnc23)C(OC(C)=O)C1OC(C)=O	-	H37Rv	-	MIC bound	BACTEC	>12.5 µg/mL
c1ccc(/C(Cn2ccnc2)=N\OCc2cccc3ccccc23)cc1	-	CIP103471	-	MIC	-	8 µg/mL
C[N+](C)(C)CC(=O)N/N=C/c1ccncc1.[Cl-]	-	H37Rv	-	MIC bound	BACTEC	>12.5 µg/mL
O=C(NCc1ccc(N2CCN(Cc3ccccc3)CC2)nc1)c1ccc([N+](=O)[O-])o1	-	CDC1551	-	MIC	-	0.05 µg/mL
CC(=O)OCCn1c2nc(=O)[nH]c(=O)c-2nc2cc(C)c(C)cc21	-	H37Rv	-	MIC bound	BACTEC	>6.25 µg/mL
Nc1ccc(C(=O)Oc2ccccc2)c(O)c1	-	H37Rv (streptomycin-resistant)	-	MIC	-	0.005 µg/mL
CCOC(=O)C(=CNC(=S)c1ccncc1)C(=O)OCC	-	H37Rv	-	MIC bound	resazurin	>6.25 µg/mL
Cn1c(NNc2nc(Nc3ccccn3)nc(Nc3ccccn3)n2)nc(-c2ccccc2)c(C#N)c1=O	-	H37Rv	-	MIC	-	>12.5 µg/mL
N=C1N(/N=C/c2ccccn2)C(=Nc2ccccc2)C(=S)N1c1ccccc1	-	H37Rv	-	MIC bound	BACTEC	≤12.5 µg/mL
NNC(=O)CC(=O)NN	-	-	-	MIC	-	10 µg/mL
O=C1OC(=O)C2C1C1CCC2(C2OCCO2)O1	-	H37Rv	-	MIC bound	BACTEC	>12.5 µg/mL
Clc1ccc(/C(Cn2ccnc2)=N/OCc2ccccc2)cc1	-	CIP103471	-	MIC	-	0.5 µg/mL

For reference, 6 entries again:

| structure | dose | strain or isolate | cells | read-out | method | value |
|---|---|---|---|---|---|---|
| O=C1CCC[C@@H]2[C@H]3C[C@@H](CN12)[C@@H]1C[C@@H](O)CCN1C3 | - | H37Rv | - | MIC | BACTEC | ≥12.8 µg/mL |
| CC(C)CC(NC(=O)OCc1ccccc1)C(=O)NN | - | H37Rv | - | MIC bound | BACTEC | >12.5 µg/mL |
| O=[N+]([O-])c1ccc(C2=NOC(c3ccc(N4CCN(Cc5ccccc5)CC4)cc3)C2)o1 | - | H37Rv | - | MIC | - | 0.006 µg/mL |
| Clc1ccc(/C(Cn2ccnc2)=N/OCc2ccc(-c3ccccc3)cc2)cc1 | - | CIP103471 | - | MIC | - | 8 µg/mL |
| Cc1ccc2nnc(NS(=O)(=O)c3cc(C)c(Cl)cc3S)n2n1 | - | H37Rv | - | MIC bound | BACTEC | >12.5 µg/mL |
| NC[C@@H]1O[C@H](O[C@H]2[C@@H](O)[C@H](O[C@@H]3[C@@H](O)[C@H](N)C[C@H](N)[C@H]3O[C@H]3O[C@H](CO)[C@@H](O)[C@H](O)[C@H]3N)O[C@@H]2CO)[C@H](N)[C@@H](O)[C@@H]1O | - | H37Rv | - | MIC | - | <0.09 µg/mL |